Results published in PMC3828196 (PLoS ONE, 2013).

Test system: KpDsbA
Experiment: ITC binding of DsbB-derived peptides to KpDsbA
Parameters: species or system K. pneumoniae
Settings: three independent experiments; for ΔH (enthalpy of binding): pH 7.4, 25 °C in method, 20 °C in table footnote, mean ± SD; for Stoichiometry: pH 7.4, single-site model
Experimental: Amidation and acetylation ensure that there are no charges on the peptide termini, as these are not present in the native DsbB loop sequence. Binding affinity was measured using a MicroCal™ Auto-iTC200 from (GE Healthcare, USA) at 25 °C. The sample cell was loaded with 200 μL of 100 μM KpDsbA or EcDsbA in 25 mM HEPES, 50 mM NaCl, pH 7.4, and DMSO 0.8 %. The peptide (3 mM) diluted in the same buffer was titrated with an initial injection of 0.5 μL into DsbA, followed by 19 consecutive injections (2.0 μL) offset by 180 s, while the solution was constantly stirred (1000 rpm). Data were fitted to a single-site binding model using MicroCal™ Origin 7.0 software (Origin 7 SR4 v7.0552). Experiments were conducted in triplicate and affinity and thermodynamic parameters are reported as means and standard deviations (Table 4).

Row | SMILES | ΔH (enthalpy of binding) | Stoichiometry
1 | CC(=O)N1CCC[C@H]1C(=O)N[C@@H](CO)C(=O)N1CCC[C@H]1C(=O)N[C@@H](Cc1ccccc1)C(=O)N[C@@H](CCC(N)=O)C(=O)N[C@H](C(=O)N[C@@H](CS)C(=O)N[C@@H](CC(=O)O)C(N)=O)[C@@H](C)O | -11.1 ± 0.2 kcal/mol | 0.97
2 | CC(=O)N1CCC[C@H]1C(=O)N[C@@H](CO)C(=O)N1CCC[C@H]1C(=O)N[C@@H](Cc1ccccc1)C(=O)N[C@@H](C)C(=O)N[C@H](C(=O)N[C@@H](CS)C(=O)N[C@@H](CC(=O)O)C(N)=O)[C@@H](C)O | -9.5 ± 0.7 kcal/mol | 0.93
